The values that follow come from PMC2711989 (Cancer research, 2009).

Each structure is given as a SMILES string. “And” between values parts separate entries of the source, which are not always exact repeats. Equal entries are not always repeated.

One assay deals with DX3puroβ6 cell line. The experiment in a line: Radiotracer cell binding and internalization, DX3puroβ6 cells. The format is cell-based, human. The settings on record: mean ± SD, n = 4. In outline: (§1)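 3.75 × 10^6 cells were incubated with 0.2 μCi radiotracer in serum-free medium, pH 7.2, over a time course or for 1 h, n = 4 per cell line per time point. Bound fraction was γ-counted as cell pellet vs supernatant. Acid wash (0.2 mol/L sodium acetate, 0.5 mol/L NaCl, pH 2.5, 4°C) then released surface activity; internalized fraction was pellet vs released activity.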

Another assay has as its system BxPC-3 cell line. The assay is described as follows: Radiotracer cell binding and internalization, BxPC-3 cells. The settings on record: BxPC-3, one minute, mean ± SD, n = 4. It is filed as cell-based, human. In outline: as §1

Consider `CC(C)C[C@H](NC(=O)[C@H](CC(=O)O)NC(=O)CNC(=O)[C@H](CCCNC(=N)N)NC(=O)[C@H](CC(C)C)NC(=O)[C@H](CC(N)=O)NC(=O)[C@@H]1CCCN1C(=O)[C@@H](NC(=O)[C@H](C)NC(=O)[C@H](CC(N)=O)NC(=O)CCOCCOCCOCCOCCOCCOCCOCCOCCOCCOCCOCCOCCOCCOCCOCCOCCOCCOCCOCCOCCOCCOCCOCCOCCOCCOCCOCCOCCNC(=O)c1ccc(F)cc1)C(C)C)C(=O)N[C@@H](CCC(N)=O)C(=O)N[C@H](C(=O)N[C@@H](CC(C)C)C(=O)N[C@@H](C)C(=O)N[C@@H](CCC(N)=O)C(=O)N[C@@H](CCCCN)C(=O)N[C@H](C(=O)N[C@@H](C)C(=O)N[C@@H](CCCNC(=N)N)C(=O)N[C@H](C(N)=O)[C@@H](C)O)C(C)C)C(C)C` [[^18F]FBA-PEG28-A20FMDV2], for which the “radiotracer bound to cells within one minute” value was 30.5 ± 2.7% in the assay with DX3puroβ6 cell line; 24.5 ± 1.2% and ~25% in the assay on BxPC-3 cell line.
